Results on one compound are retold here after ChEMBL document CHEMBL2203066 (J Med Chem, 2012).

The target in the experiment is Neuraminidase (Influenza A virus, UniProt Q6Q793).

A word on the IC50: it is the midpoint of a concentration-inhibition curve. For `CCC(CC)O[C@@H]1C=C(P(=O)(O)O)C[C@H](N)[C@H]1NC(C)=O` [TAMIPHOSPHOR], 520 pM corresponded to half-maximal inhibition (IC50).
